Laboratory results as given in article PMC9215227, “SARS-CoV-2 N Protein Antagonizes Stress Granule Assembly and IFN Production by Interacting with G3BPs to Facilitate Viral Replication” (2022).

Key:
[1] = target: T1, 6×His-Flag-G3BP2, not stated, Q9UN86 1-482; assay: SPR
T1 sequence: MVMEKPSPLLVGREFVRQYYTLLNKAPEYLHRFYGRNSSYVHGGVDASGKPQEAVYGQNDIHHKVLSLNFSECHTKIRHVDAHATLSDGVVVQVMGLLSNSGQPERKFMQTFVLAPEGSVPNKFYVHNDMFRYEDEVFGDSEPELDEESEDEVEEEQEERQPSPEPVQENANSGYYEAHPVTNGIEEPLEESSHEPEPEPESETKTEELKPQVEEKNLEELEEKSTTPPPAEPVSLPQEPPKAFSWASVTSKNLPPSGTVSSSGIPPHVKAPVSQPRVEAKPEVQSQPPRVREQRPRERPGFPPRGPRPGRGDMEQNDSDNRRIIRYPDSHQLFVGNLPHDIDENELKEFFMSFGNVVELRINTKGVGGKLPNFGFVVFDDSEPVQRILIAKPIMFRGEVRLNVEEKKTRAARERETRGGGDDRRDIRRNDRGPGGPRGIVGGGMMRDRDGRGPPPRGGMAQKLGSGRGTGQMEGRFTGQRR

[2] = target: 6×His-Flag-G3BP1, not stated, Q13283 1-466; assay: SPR

Work on “NP of SARS-CoV (catalog no. 40143-V08B, Sino Biological)” yielded a Kd [1] of 38.5 nM and a Kd [2] of 25.7 nM.
